Compound potency records, mixed from different reports. Data source: NIAID ChemDB in PubChem.

All rows: tests in culture; agent: Mycobacterium tuberculosis

Inhibition is in % at the dose shown (toxicity tests: loss of growth or viability).

compound | strain | endpoint | tested at | mutations | method | result
O=C1C(Cl)=C(Nc2ccc(Cl)c(Cl)c2)C(=O)c2ccccc21 | H37Rv | MIC bound |  |  | BACTEC | >12.5 µg/mL
Cc1[nH]n(CCO)c(=O)c1N=Nc1ccc(-c2n[nH]c(=S)n2-c2ccccc2)cc1 | H37Rv | inhibition | 12.5 µg/mL |  |  | 9%
CO[C@H]1/C=C/O[C@@]2(C)Oc3c(C)c(O)c4c(O)c(c(/C=N/N5CCN(C6CCCC6)CC5)c(O)c4c3C2=O)NC(=O)/C(C)=C\C=C\[C@H](C)[C@H](O)[C@@H](C)[C@@H](O)[C@@H](C)[C@H](OC(C)=O)[C@@H]1C | 1 isolates (rpoB Ser531Tyr) | MIC |  |  |  | >8 µg/mL
O=C(Nc1ccccc1)c1cc(S(=O)(=O)Nc2n[nH]c(=O)n2-c2ccccc2)c(S)cc1Cl | H37Rv | inhibition | 6.25 µg/mL |  | resazurin | -10%
CC(C)[C@H]1CO[C@]23CC[C@H](N(Cc4ccc(C(F)(F)F)cc4)CC4CCCN(C(=O)OC(C)(C)C)C4)C[C@H]2CCC(=O)N13 |  | MIC |  |  | resazurin | <0.5 µM
NNC(=O)CNc1cccc([N+](=O)[O-])c1 |  | MIC |  |  |  | 40 µg/mL
CC(C)[C@H]1CO[C@]23CC[C@@H](N(CCCC(F)(F)F)Cc4ccc(C(F)(F)F)cc4)C[C@H]2CCC(=O)N13 |  | MIC |  |  | resazurin | 0.5–5 µM
Cc1c2ccncc2c(C)c2c1[nH]c1ccc(Br)cc12 | H37Rv | MIC |  |  | resazurin / fluorescence | >100 µM
CC(=O)O[C@H]1C[C@@]2(C)[C@@H](C[C@@H](O)[C@H]3[C@@]4(C)CC[C@@H](O)[C@@H](C)[C@@H]4CC[C@@]32C)/C1=C(\CCC=C(C)C)C(=O)O | H37Rv | Median MIC |  |  |  | 12 µg/mL
CC(C)[C@H]1CO[C@]23CC[C@H](N(Cc4ccc(C(F)(F)F)cc4)CC4COC4)C[C@H]2CCC(=O)N13 |  | MIC |  |  | resazurin | <0.5 µM
CCCC(=O)[C@]1(CCC2OCCO2)CC[C@@]2(c3ccccc3)ON12 | H37Ra | MIC |  |  |  | >200 µg/mL
O=C(CN1CCCCC1)N/N=C\C(=O)c1ccccc1 |  | MIC |  |  |  | >50 µg/mL
O=C1NNC(=S)NN1 |  | MIC |  |  |  | >200 µg/mL
S=C(NCN1CCOCC1)c1cncc(-n2ccnc2)n1 | Isoniazid-resistant | MIC |  |  |  | 500 µg/mL
O=[N+]([O-])c1ccc(N=N/C(=N\Nc2ccccc2)c2nc3ccccc3[nH]2)c([N+](=O)[O-])c1 | H37Rv | inhibition | 6.25 µg/mL |  | resazurin | 0%
CC(O)C1C(=O)N2C(C(=O)O)C=C(SC3CN(C4=NCCC4)C3)C12 |  | MIC90 |  |  | broth dilution / visual reading | 1.25–2.5 µg/mL
CCCCCCCCCCCCNCCO | H37Rv | MIC |  |  |  | 6.25 µg/mL
NC1(C(=O)O)CSSC1 | H37Rv | inhibition | 12.5 µg/mL |  | BACTEC | 13%
NNC(=O)C1CC=CC(Cl)C1C(=O)NN |  | MIC |  |  |  | >200 µg/mL
CCCCC[C@@]1(C(=O)CCC)CC[C@@]2(c3ccccc3)ON12 | H37Ra | MIC |  |  |  | 100 µg/mL
NNC(=O)c1ccncc1 | H37Rv | Mean MIC |  |  |  | 0.031 µg/mL
Cc1[nH]n(-c2ccccc2)c(=O)c1N=Nc1ccc(-c2n[nH]c(=O)n2-c2ccccc2)cc1 | H37Rv | MIC |  |  |  | >12.5 µg/mL
CCCCCCCCCCCCCCN(CCO)CCO | H37Rv | MIC |  |  |  | 12.5 µg/mL
CO[C@@H]1[C@H](O)[C@@H](C)O[C@@H](OC[C@H](C)[C@H]2OC(=O)[C@H](C)[C@@H](O[C@H]3C[C@@H](C)N(C)C[C@H](C)O3)[C@H](C)[C@@H](O[C@@H]3O[C@H](C)CC(=O)[C@H]3O)[C@@H](C)C[C@](C)(OC(=O)N3C[C@H](C)O[C@@H](C)C3)C(=O)[C@H](C)[C@H](OC(=O)CC(C)C)[C@H]2C)[C@@H]1OC | H37Rv | MIC |  |  | resazurin | 2.2 µM
C[C@@H]1CC[C@H](C(C)(C)O)CC2=C1CC[C@H]2C | H37Rv | MIC |  |  | BACTEC | ≥128 µg/mL
OCNC(=S)c1cncc(-n2ccnc2)n1 | SP 607 | MIC |  |  |  | 500 µg/mL
Nc1nc2nc(C(=O)O)c(=S)[nH]c2c(=O)[nH]1 | H37Rv | inhibition | 12.5 µg/mL |  | BACTEC | 19%
CC[C@H]1OC(=O)[C@H](C)[C@@H](O[C@H]2C[C@@](C)(OC)[C@@H](O)[C@H](C)O2)[C@H](C)[C@@H](O[C@@H]2O[C@H](C)C[C@H](N(C)C)[C@H]2O)[C@](C)(OC)C[C@@H](C)C(=O)[C@H](C)[C@@H](O)[C@]1(C)O | H37Ra | Mean MIC |  |  |  | 1.88 µg/mL
O=C1OS(=O)(=O)c2ccccc21 | H37Rv | MIC bound |  |  | BACTEC | >12.5 µg/mL
NNC(=O)c1ccc(Cl)cc1 |  | MIC |  |  |  | >200 µg/mL
OCC1OC(Oc2c(O)cc(O)cc2C=Cc2ccc(O)cc2)C(O)C(O)C1O |  | inhibition | 200 µM |  | fluorescence | 0%
NNC(=O)c1ccncc1 | Jal 2261 | MIC |  | MDR | resazurin / fluorescence | >100 µg/mL
COc1cc(O)c2c(O)c3c(=O)cc(C)oc3cc2c1 | H37Rv | MIC |  |  | BACTEC | ≥12.5 µg/mL
COc1c(O)cc2oc(-c3ccc(O)cc3)cc(=O)c2c1O |  | inhibition | 200 µM |  | fluorescence | 82.06%
CC(C)[C@H]1CO[C@]23CC[C@@H](N(CCCF)Cc4ccc(C(F)(F)F)cc4)C[C@H]2CCC(=O)N13 |  | MIC |  |  | resazurin | <0.5 µM
CCCC[C@]1(C(=O)CCC)CC[C@@]2(c3ccccc3)ON12 | H37Ra | MIC |  |  |  | 100 µg/mL
CCCCN1C[C@H](C)O[C@@H](O[C@H]2[C@H](C)[C@@H](O[C@@H]3O[C@H](C)CC(=O)[C@H]3O)[C@@H](C)C[C@](C)(OC(=O)N3C[C@@H](C)O[C@@H](C)C3)C(=O)[C@H](C)[C@H](OC(=O)CC(C)C)[C@@H](C)[C@@H]([C@@H](C)CO[C@@H]3O[C@H](C)[C@@H](O)[C@@H](OC)[C@H]3OC)OC(=O)[C@@H]2C)C[C@H]1C | H37Rv | MIC |  |  | resazurin | 1.44 µM
CN1C=CC(=CC=C2C=CC(=O)C=C2)C=C1 | H37Rv | MIC bound |  |  | BACTEC | >12.5 µg/mL
CCCCCCCCCCCCCCNCCO | H37Rv | MIC |  |  |  | 12.5 µg/mL
Cc1ccc(S(=O)(=O)NNc2ccccc2)cc1 |  | MIC |  |  |  | >200 µg/mL
NCC[C@H](O)C(=O)N[C@@H]1C[C@H](N)[C@@H](O[C@H]2O[C@H](CN)[C@@H](O)[C@H](O)[C@H]2O)[C@H](O)[C@H]1O[C@H]1O[C@H](CO)[C@@H](O)[C@H](N)[C@H]1O | H37Rv | Mean MIC |  |  |  | 0.88 µg/mL
Cc1ccc2[nH]c3c(C)c4cc[n+](C)cc4c(C)c3c2c1 | H37Rv | MIC |  |  | resazurin / fluorescence | 3 µM
CCOC(=O)C1(C)CCc2sc(N)c(C#N)c21 | H37Rv | inhibition | 12.5 µg/mL |  | BACTEC | 15%
CC(C)[C@H]1CO[C@]23CC[C@@H](OC(c4ccc(Cl)cc4)c4ccc(Cl)cc4)C[C@H]2CCC(=O)N13 |  | MIC |  |  | resazurin | <0.5 µM
C=CCn1c(-c2ccc(N=Nc3c(C)[nH]n(-c4ccccc4)c3=O)cc2)n[nH]c1=S | H37Rv | MIC |  |  |  | >12.5 µg/mL
CCN(CCO)CCNc1ccc(C)c2sc3cc(Cl)ccc3c(=O)c12 | H37Rv | MIC |  |  | BACTEC | 3.13 µg/mL
CC(C)[C@H]1CO[C@]23CC[C@@H](N(CCCCF)Cc4ccc(C(F)(F)F)cc4)C[C@H]2CCC(=O)N13 |  | MIC |  |  | resazurin | 0.5–5 µM
Cc1[nH]n(-c2ccccc2)c(=O)c1N=Nc1ccc(-c2n[nH]c(=S)o2)cc1 | H37Rv | MIC |  |  |  | <12.5 µg/mL
CC(O)[C@H]1C(=O)N2C(C([O-])O)=C(SC3Cn4cnc[n+]4C3)[C@H](C)[C@H]12 |  | MIC90 |  |  | broth dilution / visual reading | 2.5–5 µg/mL
CC(=O)Nc1ccc(S(=O)(=O)N/N=C\c2ccccc2)cc1 |  | MIC |  |  |  | >200 µg/mL
CC(=O)CCCCn1c(=O)c2c(nc(Br)n2C)n(C)c1=O | H37Rv | inhibition | 12.5 µg/mL |  | BACTEC | 0%
O=C(CN1CCCCC1)N/N=C\C(=O)c1ccc(Oc2ccccc2)cc1 |  | MIC |  |  |  | >50 µg/mL
CC1CCCCN1c1cncc(C(=O)NN)n1 | Isoniazid-resistant | MIC |  |  |  | 62.5 µg/mL
COc1ccc2nccc(/C=C3/C(OC(=O)NS(=O)(=O)c4ccc(C)cc4)C4CCN3CC4)c2c1 | H37Rv | inhibition | 12.5 µg/mL |  | BACTEC | -7%
O=C(CN1CCOCC1)N/N=C\C(=O)c1ccc(-c2ccccc2)cc1 |  | MIC |  |  |  | >50 µg/mL
COc1ccc(Cc2ccc3[nH]c(=O)cc(C)c3c2)cc1S(=O)(=O)O | H37Rv | MIC bound |  |  | BACTEC | >6.25 µg/mL
O=C(CN1CCOCC1)N/N=C\C(=O)c1ccc(Sc2ccccc2)cc1 |  | MIC |  |  |  | >50 µg/mL
Br.O=C1C=CCC2C3CCCN4CCCC(CN12)C34 |  | inhibition | 200 µM |  | fluorescence | 11.85%
COc1cccc(/C=N/NC(=O)c2ccccc2Cl)c1 |  | MIC |  |  |  | 1–10 µg/mL
CC1CN(c2cncc(C(N)=S)n2)CC(C)O1 | Isoniazid-resistant | MIC |  |  |  | 31.2 µg/mL
CC(C)[C@H]1CO[C@]23CC[C@H](N(Cc4ccc(C(F)(F)F)cc4)C4CCC(F)(F)CC4)C[C@H]2CCC(=O)N13 |  | MIC |  |  | resazurin | 0.5–5 µM
C[N+](C)(C)CCCN1c2ccccc2Sc2c1ccc1ccccc21 | H37Rv | MIC |  |  |  | 3.44 µg/mL
Cc1[nH]n(CCO)c(=O)c1N=Nc1ccc(C(=O)N/N=C/c2ccc(F)cc2)cc1 | H37Rv | inhibition | 12.5 µg/mL |  |  | 0%
Cc1c(C(N)=O)c(=O)[nH]c2ccc([N+](=O)[O-])cc12 | H37Rv | inhibition | 12.5 µg/mL |  | BACTEC | 26%
COc1cc(C(=O)NN)cc(OC)c1OC |  | MIC |  |  |  | >40 µg/mL
COc1ccc2ncc(COC(=O)NC3CCCCC3)c(COC(=O)NC3CCCCC3)c2c1 | H37Rv | MIC bound |  |  | BACTEC | ≤12.5 µg/mL
CO[C@H]1/C=C/O[C@@]2(C)Oc3c(C)c(O)c4c(O)c(c(/C=N/N5CCN(C6CCCC6)CC5)c(O)c4c3C2=O)NC(=O)/C(C)=C\C=C\[C@H](C)[C@H](O)[C@@H](C)[C@@H](O)[C@@H](C)[C@H](OC(C)=O)[C@@H]1C | H37Rv | Median MIC |  |  |  | 0.013 µg/mL
CO[C@H]1/C=C/O[C@@]2(C)Oc3c(C)c(O)c4c(=O)c(c5oc6cc(N7CCN(CC(C)C)CC7)cc(=O)c6nc5c4c3=C2O)NC(=O)/C(C)=C\C=C\[C@H](C)[C@H](O)[C@@H](C)[C@@H](O)[C@@H](C)[C@H](OC(C)=O)[C@@H]1C | 31 (rifampicin-resistant) | MIC |  |  |  | 4 µg/mL
CC1C(=O)OC2C(O)C34C5CC(C(C)(C)C)C36C(OC(=O)C6O)OC4(C(=O)O5)C12O |  | inhibition | 200 µM |  | fluorescence | 39.9%
CC[C@@H](CO)NCCN[C@@H](CC)CO | L1901 | MIC |  |  |  | 1 µg/mL
Cc1cc(N)c2ccccc2[n+]1CCCCCCCCCC[n+]1c(C)cc(N)c2ccccc21 |  | EC50 |  |  | broth dilution | 0.3 µg/mL
N[C@@H]1CONC1=O | H37Rv | Mean MIC |  |  |  | 15.6 µg/mL
CCNCc1c(C)nc2ccc(N(C)C)cc2c1Cl | H37Rv | MIC bound |  |  | BACTEC | >12.5 µg/mL
C[C@@H]1CN(c2c(F)c(N)c3c(=O)c(C(=O)O)cn(C4CC4)c3c2F)C[C@H](C)N1 | H37Ra | Mean MIC |  |  |  | 0.12 µg/mL
O=C1N2CCNc3ccccc3C(c3ccccc3)N1CC2 | H37Rv | MIC bound |  |  | BACTEC | >12.5 µg/mL
CC(=O)NC[C@H]1CN(c2ccc3c(c2)Oc2ccccc2O3)C(=O)O1 |  | MIC90 |  |  | broth dilution / visual reading | 0.5–1 µg/mL
C=CCC1(C(C)Cc2ccc(OC)c(OC)c2)CC(OC)C=CC1=O | H37Rv | MIC |  |  | BACTEC | ≥12.5 µg/mL
O=C(NNS(=O)(=O)c1ccccc1)c1ccccc1 |  | MIC |  |  |  | >200 µg/mL
CCC(C)(O)c1cnc(CC(C)C)c(=O)n1O | H37Rv | inhibition | 12.8 µg/mL |  | BACTEC | 14%
CCCCCCCCCCCCNC(C)(C)CO | H37Rv | MIC |  |  |  | 12.5 µg/mL

A second listing of 8 rows from above:

compound | strain | endpoint | tested at | mutations | method | result
COc1cccc(/C=N/NC(=O)c2ccccc2Cl)c1 |  | MIC |  |  |  | 1–10 µg/mL
Cc1cc(N)c2ccccc2[n+]1CCCCCCCCCC[n+]1c(C)cc(N)c2ccccc21 |  | EC50 |  |  | broth dilution | 0.3 µg/mL
NNC(=O)c1ccncc1 | H37Rv | Mean MIC |  |  |  | 0.031 µg/mL
CC1C(=O)OC2C(O)C34C5CC(C(C)(C)C)C36C(OC(=O)C6O)OC4(C(=O)O5)C12O |  | inhibition | 200 µM |  | fluorescence | 39.9%
CC1CN(c2cncc(C(N)=S)n2)CC(C)O1 | Isoniazid-resistant | MIC |  |  |  | 31.2 µg/mL
Nc1nc2nc(C(=O)O)c(=S)[nH]c2c(=O)[nH]1 | H37Rv | inhibition | 12.5 µg/mL |  | BACTEC | 19%
CC(O)C1C(=O)N2C(C(=O)O)C=C(SC3CN(C4=NCCC4)C3)C12 |  | MIC90 |  |  | broth dilution / visual reading | 1.25–2.5 µg/mL
COc1cc(O)c2c(O)c3c(=O)cc(C)oc3cc2c1 | H37Rv | MIC |  |  | BACTEC | ≥12.5 µg/mL

MIC bound: limit read from a one-dose screen. Conditions beyond the fields shown may differ between rows. a–b is a range or a potency band. Blank or dashed fields: not listed here. ECn is the concentration giving n% inhibition of infection, replication or growth. A number after MIC or MFC names an inhibition level or a share of isolates.